From US20160304570A1, “Potent and selective inhibitors of nav1.3 and nav1.7” (published 2016)
No end group written: not given here.

target: human voltage-gated sodium channel Nav1.7 (human), Q15858; assay: cell-based or functional assay

Binder	Nav1.7/Nav1.3 (ratio of IWQ IC50 on Nav1.7 to that on Nav1.3)
DCLGAFRKCIPDKDKCCRPNLVCSRTHRWCKYVF-OH (ends and bridges not checked) [[Ala5;Phe6;Lys13;Arg28]GpTx-1(1-34)-FreeAcid]	11.8 fold
DCLGAFRKCIPDLDKCCRPNLVCSRTHRWCKYVF-OH (ends and bridges not checked) [[Ala5;Phe6;Leu13;Arg28]GpTx-1(1-34)-FreeAcid]	1 fold
DCLGAFRKCIPDMDKCCRPNLVCSRTHRWCKYVF-OH (ends and bridges not checked) [[Ala5;Phe6;Met13;Arg28]GpTx-1(1-34)-FreeAcid]	5.8 fold
DCLGAFRKCIPDPDKCCRPNLVCSRTHRWCKYVF-OH (ends and bridges not checked) [[Ala5;Phe6;Pro13;Arg28]GpTx-1(1-34)-FreeAcid]	1 fold
DCLGAFRKCIPDRDKCCRPNLVCSRTHRWCKYVF-OH (ends and bridges not checked) [[Ala5;Phe6;Arg13,28]GpTx-1(1-34)-FreeAcid]	7.1 fold
